In publication PMC7842926, “Synergistic effect and ultrastructural changes in Trypanosoma cruzi caused by isoobtusilactone A in short exposure of time” (PLoS ONE, 2021):

Tested on: epimastigotes of T. cruzi (Dm28c, TcI)
Assay: Epimastigote cell viability assay (MTS/PMS), Dm28c
Assay type: cell-based, Trypanosoma cruzi
Details: 4 h
Description: Epimastigote forms of three strains of T. cruzi, including Dm28c (TcI), CL Brener (TcVI), and Y strain (TcII), were maintained in liver infusion tryptose (LIT) medium supplemented with 10% fetal bovine serum at 28°C [16] were kindly provided by Oswaldo Cruz Institute/Fiocruz. For the experiments, exponential phase cultures were used. All assays were performed in triplicates in 96-well plates.
The effect of the isolated compounds on the viability of epimastigote forms of Dm28c strain was determined by MTS [3-(4,5-dimethylthiazol-2-yl)-5-(3-carboxymethoxyphenyl)-2-(4-sulfophenyl)-2H-tetrazolium bromide] with PMS (5-methyl-phenazinium methyl sulfate) colorimetric assay, as described by Nunes et al.. […]
The absorbance of the formazan was measured at 490 nm using a microplate reader (Asys Expert Plus -Biochrom). In parallel, we determined the effect of 1% DMSO (negative control) and benznidazole (positive control) on the viability of epimastigotes and a replicate of each treatment was performed by fixing the epimastigotes with 4% paraformaldehyde prior to the addition of MTS/PMS (basal absorbance control). […]

C=C1OC(=O)/C(=C/CCCCCCCCCCCCC)[C@@H]1O [Isoobtusilactone A, isoobtusilactone A]
SI value of 3 relative to 4, epimastigotes: about 39 fold
activity of 3 relative to 4 against epimastigotes: roughly 59 fold
